Measured values from several laboratories, pooled; numbers as filed in NIAID ChemDB.

Common to all: tests in culture; organism: Candida albicans; endpoint: MIC

a–b is a range or a potency band. Rows are shuffled and stem from different studies. Blank or dashed fields: not listed here.

smiles,strain or isolate,read by,value
CO[C@H]1OC(=O)C=C2C1=CC1OC(=O)[C@@]3(C)CCC[C@@]2(C)[C@@H]13,CECT 1394,-,<3.12 µg/mL
C/C=C/C=C(/C)C(=O)O[C@H]1[C@H](O)[C@H](OCC23C4C=C(C(C)C)C2(C(=O)O)C(C=O)(C4)[C@@H]2CC[C@@H](C)[C@H]23)O[C@H](C)[C@H]1OC,2381E,-,0.06 µg/mL
CC1=CC2OC(=O)[C@@]3(C)CCC[C@@](C)([C@@H]23)[C@H]1CC=O,CECT 1394,-,>100 µg/mL
CCOC(=O)Cc1csc(NC(=O)CSC(=S)N2CCCC2)n1,ATCC 10231,-,156 µg/mL
O=C(NNC(=S)Nc1ccc(Br)cc1)c1cn2ccccc2n1,ATCC 10231,broth dilution,64 µg/mL
CN(C)c1ccc(/C=N/c2c(C(=O)N/N=C/c3cc4ccccc4nc3Cl)sc(=S)n2-c2ccccc2)cc1,MTCC 227,broth dilution,1000 µg/mL
O=C(Nc1cc([N+](=O)[O-])ccc1O)c1ccc([N+](=O)[O-])cc1,-,-,50 µg/mL
Nc1ncccc1-c1cc(Cc2ccc(COc3ccccn3)cc2)no1,373,broth dilution,0.015 µg/mL
CCCCn1sc2ccc(F)cc2c1=O,-,-,2.5 µg/mL
COC(=O)CC1C(C)=CC2OC(=O)[C@@]3(C)CCC[C@@]1(C)[C@@H]23,CECT 1394,-,>100 µg/mL
C/C(CC(=O)Nc1ccccc1C)=N\c1ncccc1O,-,agar diffusion / agar,600 µg/mL
CC(C)(C)c1ccc(-c2nc3cc([N+](=O)[O-])ccc3o2)cc1,-,-,12.5 µg/mL
Fc1ccc(Nc2nnc(-c3cn4ccccc4n3)o2)cc1,ATCC 10231,broth dilution,32 µg/mL
CCCNC(=O)c1ccc[nH]c1=S,-,-,15 µg/mL
CCC(C)CC(C)CCCCCCCCC(=O)N[C@H]1C[C@@H](O)[C@@H](O)NC(=O)[C@@H]2[C@@H](O)CCN2C(=O)[C@H]([C@H](O)CC(N)=O)NC(=O)[C@H]([C@H](O)[C@@H](O)c2ccc(O)cc2)NC(=O)[C@@H]2C[C@@H](O)CN2C(=O)[C@H]([C@@H](C)O)NC1=O,40 isolates,-,>64 µg/mL
CCCCCCCCOc1ccc(C(=O)NC2C[C@@H](O)[C@@H](O)NC(=O)C3[C@@H](O)[C@@H](C)CN3C(=O)C(C(C)O)NC(=O)C([C@H](O)[C@@H](O)c3ccc(O)cc3)NC(=O)C3C[C@@H](O)CN3C(=O)C(C(C)O)NC2=O)cc1,CS,-,0.5 µg/mL
CSc1ncc([N+](=O)[O-])n1C,-,-,>200 µg/mL
Cc1c(O)cccc1C(=O)N[C@@H](CSc1ccccc1)[C@H](O)CN1C[C@H]2CCCC[C@H]2C[C@H]1C(=O)NC(C)(C)C,I111A,-,>64 µg/mL
CCCCCCNC(=O)c1ccc[nH]c1=S,-,-,10 µg/mL
COc1ccc2c(c1OC)CN1CCc3cc4c(cc3C1=C2)OCO4,ATCC 10231,-,128 µg/mL
Cc1ccc(C2CC(Cc3ccc4ccccc4c3)=Cc3[nH][nH]c(=O)c32)cc1,-,agar diffusion,100 µg/mL
C=C1C(=O)OC2C3C4(OC4[C@H](O)[C@@]3(C)O)[C@@H](C)C[C@H](O)[C@@H]12,-,-,20 µg/mL
C=C(C)C1CC2=C(O1)C(=O)c1ccccc1C2=O,-,-,20 µg/mL
COc1ccc(/C=N/c2c(C(=O)N/N=C/c3cc4ccccc4nc3Cl)sc(=S)n2-c2ccccc2)cc1OC,MTCC 227,broth dilution,>1000 µg/mL
CC1C(=O)CC(c2ccc(Cl)cc2)N(OCCc2nc3ccccc3o2)C1c1ccc(Cl)cc1,-,-,25 µg/mL
O=C(Nc1c(F)cccc1F)OCCCN1CCN(c2nc3ccccc3s2)CC1,CY1123,-,1.3 µg/mL
CCn1cc(C(=O)O)c(=O)c2cc(F)c(N3CCN(CN4C(=O)C(=Nc5ccc(S(=O)(=O)Nc6ncccn6)cc5)c5cc(Cl)ccc54)CC3)cc21,-,-,156 µg/mL
CN1C=NCCC1.Cc1c(C)c(C)c(C)c(C)c1C.[Cl][Ru][Cl],-,-,400 µg/mL
O=[N+]([O-])c1ccc2oc(-c3ccccc3)nc2c1,-,-,12.5 µg/mL
CC1C(=O)C(C)C(c2ccc(Cl)cc2)N(OCCc2nc3ccccc3o2)C1c1ccc(Cl)cc1,-,-,50 µg/mL
Cc1ccc(C(=O)CSc2nc3c(sc(=S)n3-c3ccccc3)c(=O)n2-c2ccccc2)cc1,ATCC 90018,-,64 µg/mL
CC[C@]1(O)C[C@H]2CN(CCc3c([nH]c4ccccc34)[C@@](C(=O)OC)(c3cc4c(cc3OC)N(C=O)[C@H]3[C@@](O)(C(=O)OC)[C@H](OC(C)=O)[C@]5(CC)C=CCN6CC[C@]43[C@@H]65)C2)C1,ATCC28366,-,>500 µg/mL
CCCCCNC(=O)c1ccc[nH]c1=S,-,-,40 µg/mL
COc1cnc2c3c(nccc13)C(=O)c1ccccc1-2,NIH B311,-,3.12 µg/mL
CCn1cc(C(=O)O)c(=O)c2cc(F)c(N3CCN(CN4C(=O)/C(=N\c5ncc(Cc6cc(OC)c(OC)c(OC)c6)c(N)n5)c5cc(Br)ccc54)CC3)cc21,-,-,78.12 µg/mL
COC(=O)C[C@H]1C(=O)C=C[C@@H]2[C@]1(C)CCC[C@]2(C)C(=O)OC,CECT 1394,-,>100 µg/mL
C=C(C)C1CC2=C(O1)C(=O)c1cccc(OC)c1C2=O,-,-,80 µg/mL
CCn1cc(C(=O)O)c(=O)c2cc(F)c(N3CCN(CN4C(=O)/C(=N\c5ncc(Cc6cc(OC)c(OC)c(OC)c6)c(N)n5)c5cc(Cl)ccc54)CC3)cc21,-,-,156 µg/mL
O=C1CC(c2ccccc2)N(OCCc2nc3ccccc3o2)C(c2ccccc2)C1,-,-,100 µg/mL
O=C(N/N=C/c1cc2ccccc2nc1Cl)c1sc(=S)n(-c2ccccc2)c1/N=C/c1ccc(O)cc1,MTCC 227,broth dilution,>1000 µg/mL
O=C(CN1CCOCC1)Nc1ccc2oc(-c3ccc(F)cc3)nc2c1,ATCC 10145,-,50 µg/mL
CC1=C2[C@@H](OC(=O)/C=C/c3ccccc3)[C@H](C(C)C)CC[C@]2(C)[C@@H](O)CC1=O,ATCC 10231,-,16 µg/mL
C=C[n+]1ccncc1.Cc1ccc(C(C)C)cc1.[Cl][Ru][Cl],-,-,200 µg/mL
CCn1cc(C(=O)O)c(=O)c2cc(F)c(N3CCN(CN4C(=O)C(=Nc5ccc(S(=O)(=O)Nc6ncnc(OC)c6OC)cc5)c5cc(Cl)ccc54)CC3)cc21,-,-,156 µg/mL
C=C(C)C1CC2=C(O1)C(=O)c1cccc(O)c1C2=O,-,-,10 µg/mL
Cc1cc(COc2ccc(Oc3ccc(Cl)cc3)cc2)n(O)c(=O)c1,TIMM2640,-,8 µg/mL
CC(C)C1=CC2CC3(C=O)[C@@H]4CC[C@@H](C)[C@H]4CC2(CO[C@@H]2O[C@H](C)CN(CC4CC4)C[C@@H]2O)[C@]13C(=O)O,-,-,16 µg/mL
O=C(Cc1ccc(Cl)cc1)Nc1ccc2oc(-c3ccccc3)nc2c1,ATCC 10145,-,50 µg/mL
Cc1ccc(NC(=S)NNC(=O)c2cn3ccccc3n2)cc1,ATCC 10231,broth dilution,64 µg/mL
CCO[C@@H]1[C@@H](OCC)[C@H](Cc2ccccc2)O[C@@H]2CO[C@@H](c3ccc(Cl)cc3)O[C@@H]12,ATCC 24433,-,>25 µg/mL
O=C(NCc1ccccc1)c1ccc[nH]c1=S,-,-,10 µg/mL
CC(C)Cc1ccc(CC2=Cc3[nH][nH]c(=O)c3C(c3ccc(Cl)cc3)C2)cc1,-,agar diffusion,25 µg/mL
CCC(C)CC(C)CCCCCCCCC(=O)N[C@H]1C[C@@H](O)[C@@H](OCCN)NC(=O)[C@@H]2C[C@@H](O)CN2C(=O)[C@H]([C@H](O)CCN)NC(=O)[C@H]([C@H](O)[C@@H](O)c2ccc(O)cc2)NC(=O)[C@@H]2C[C@@H](O)CN2C(=O)[C@H]([C@@H](C)O)NC1=O,40 isolates,-,32–64 µg/mL
OB1OCc2ccc3ccccc3c21,-,-,32 µg/mL
Cc1ccc(/C=N/c2c(C(=O)N/N=C/c3cc4ccccc4nc3Cl)sc(=S)n2-c2ccccc2)cc1,MTCC 227,broth dilution,>1000 µg/mL
O=C(CN1CCOCC1)Nc1ccc2oc(-c3ccccc3)nc2c1,ATCC 10145,-,50 µg/mL
CCn1cnc2ccccc21.Cc1ccc(C(C)C)cc1.[Cl][Ru][Cl],-,-,400 µg/mL
O=c1[nH]cnc2c(-c3ccc(Br)cc3)n[nH]c12,ATCC 10231,agar diffusion / agar,250 µg/mL
CCCCCCn1sc2ncccc2c1=O,-,-,30 µg/mL
COc1cc(/C=N/c2c(C(=O)N/N=C/c3cc4ccccc4nc3Cl)sc(=S)n2-c2ccccc2)ccc1O,MTCC 227,broth dilution,>1000 µg/mL
O=C(CSc1nc2c(sc(=S)n2-c2ccccc2)c(=O)n1-c1ccccc1)c1ccc(Br)cc1,ATCC 90018,-,1 µg/mL
CCC(C)CC(C)CCCCCCCCC(=O)N[C@H]1C[C@@H](O)[C@H](NCCN)NC(=O)[C@@H]2[C@@H](O)CCN2C(=O)[C@H]([C@H](O)CCN)NC(=O)[C@H]([C@H](O)[C@@H](O)c2ccc(O)cc2)NC(=O)[C@@H]2C[C@@H](O)CN2C(=O)[C@H]([C@@H](C)O)NC1=O,8649,broth dilution,4 µg/mL
O=C(Cc1ccccc1Cl)Nc1ccc2oc(-c3ccccc3)nc2c1,ATCC 10145,-,25 µg/mL
Cn1ccnc1S(C)=O,-,-,>200 µg/mL
CC(C)(C)c1ccc(-c2nc3cc(NC(=O)CN4CCOCC4)ccc3o2)cc1,ATCC 10145,-,50 µg/mL
Cn1c([N+](=O)[O-])cnc1S(C)=O,-,-,>200 µg/mL
C[C@@H](N1CCc2nc(-c3ccco3)sc2C1)[C@](O)(C[n+]1cnc[nH]1)c1ccc(F)cc1F,Y0109,-,0.25 µg/mL
COCCN1CCN(CCOC)[C]1=[Ru]([Cl])[Cl].Cc1ccc(C(C)C)cc1,-,-,800 µg/mL
Cn1c(SCC(=O)c2ccccc2)nc2c(sc(=S)n2-c2ccccc2)c1=O,ATCC 90018,-,128 µg/mL
O=C(CN1CCNCC1)Nc1ccc2oc(-c3ccccc3)nc2c1,ATCC 10145,-,50 µg/mL
O=C(CSc1nc2c(sc(=S)n2-c2ccccc2)c(=O)n1-c1ccccc1)c1ccccc1,ATCC 90018,-,64 µg/mL
CN1CCN(CC(=O)Nc2ccc3oc(-c4ccc(F)cc4)nc3c2)CC1,ATCC 10145,-,25 µg/mL
CC(C)Cc1ccc(CC2=Cc3[nH][nH]c(=O)c3C(c3ccccc3)C2)cc1,-,agar diffusion,50 µg/mL
C[C@H]1[C@H](O)[C@@H](C)/C=C/C=C/C=C/C=C/C=C/C=C/C=C/[C@H](O[C@@H]2O[C@H](C)[C@@H](O)[C@H](N)[C@@H]2O)C[C@@H]2O[C@](O)(C[C@@H](O)C[C@@H](O)CC[C@H](O)[C@@H](O)C[C@@H](O)CC(=O)O[C@H]1C)C[C@H](O)[C@H]2C(=O)O,ATCC 10231,broth dilution,0.5 µg/mL
COc1ccc(C(=O)Nc2cc([N+](=O)[O-])ccc2O)cc1,-,-,12.5 µg/mL
c1ccc(Nc2nnc(-c3cn4ccccc4n3)o2)cc1,ATCC 10231,broth dilution,32 µg/mL
COc1ccc(/C=N/c2c(C(=O)N/N=C/c3cc4ccccc4nc3Cl)sc(=S)n2-c2ccccc2)cc1,MTCC 227,broth dilution,>1000 µg/mL
CCn1c(SCC(=O)c2ccc(Br)cc2)nc2c(sc(=S)n2-c2ccccc2)c1=O,ATCC 90018,-,64 µg/mL
CCn1cc(C(=O)O)c(=O)c2cc(F)c(N3CCN(CN4C(=O)/C(=N\c5ncc(Cc6cc(OC)c(OC)c(OC)c6)c(N)n5)c5ccccc54)CC3)cc21,-,-,156 µg/mL
Cn1c([N+](=O)[O-])cnc1S(C)(=O)=O,-,-,>200 µg/mL

11 of the rows above, restated:

| smiles | strain or isolate | read by | value |
|---|---|---|---|
| C[C@@H](N1CCc2nc(-c3ccco3)sc2C1)[C@](O)(C[n+]1cnc[nH]1)c1ccc(F)cc1F | Y0109 | - | 0.25 µg/mL |
| O=C(Nc1c(F)cccc1F)OCCCN1CCN(c2nc3ccccc3s2)CC1 | CY1123 | - | 1.3 µg/mL |
| O=C1CC(c2ccccc2)N(OCCc2nc3ccccc3o2)C(c2ccccc2)C1 | - | - | 100 µg/mL |
| Cn1c([N+](=O)[O-])cnc1S(C)=O | - | - | >200 µg/mL |
| CC(C)(C)c1ccc(-c2nc3cc([N+](=O)[O-])ccc3o2)cc1 | - | - | 12.5 µg/mL |
| CCCCn1sc2ccc(F)cc2c1=O | - | - | 2.5 µg/mL |
| CC1=CC2OC(=O)[C@@]3(C)CCC[C@@](C)([C@@H]23)[C@H]1CC=O | CECT 1394 | - | >100 µg/mL |
| CN1CCN(CC(=O)Nc2ccc3oc(-c4ccc(F)cc4)nc3c2)CC1 | ATCC 10145 | - | 25 µg/mL |
| CC(C)Cc1ccc(CC2=Cc3[nH][nH]c(=O)c3C(c3ccc(Cl)cc3)C2)cc1 | - | agar diffusion | 25 µg/mL |
| O=[N+]([O-])c1ccc2oc(-c3ccccc3)nc2c1 | - | - | 12.5 µg/mL |
| CCC(C)CC(C)CCCCCCCCC(=O)N[C@H]1C[C@@H](O)[C@@H](O)NC(=O)[C@@H]2[C@@H](O)CCN2C(=O)[C@H]([C@H](O)CC(N)=O)NC(=O)[C@H]([C@H](O)[C@@H](O)c2ccc(O)cc2)NC(=O)[C@@H]2C[C@@H](O)CN2C(=O)[C@H]([C@@H](C)O)NC1=O | 40 isolates | - | >64 µg/mL |